Anti-infective test results gathered from many reports (values: NIAID ChemDB through PubChem).

Common to all: tests in culture; species: HIV-1; endpoint: EC50

Two numbers with a dash give a range or band. Blank or dashed fields: not listed here. ECn: concentration that inhibits the pathogen or its effect by n%. Rows are shuffled and stem from different studies.

Nc1ccn([C@@H]2CC[C@H](CO)S2)c(=O)n1 ; strain: IIIB ; cells: HeLa + HELA CD4+ ; result: >50 µM
Cc1cn([C@H]2C[C@H](N=[N+]=[N-])[C@@H](CO)O2)c(=O)[nH]c1=O ; cells: CEM + CME-SS ; method: cytopathic effect / XTT ; result: 0.018 µM
CC(C)=CCOc1cc(NC(=S)c2ccoc2C)ccc1Cl ; strain: Dihydrocostatolide-resistant (RT-L100I) ; changes: RT-L100I ; cells: CEM + CEM-SS ; method: XTT ; result: 0.3 µM
Nc1ccn([C@H]2CC[C@@H](CO)O2)c(=O)n1 ; strain: Recombinant ; changes: RT-V75I F77L Q151M ; cells: PBMC ; method: p24 ; result: 0.12 µM
CCc1c(Sc2ccccn2)n(COCc2ccccc2)c(=O)[nH]c1=O ; strain: IIIB ; cells: CEM + CEM-SS ; method: XTT ; result: 0.04 µM
Cc1cc(S(N)(=O)=O)ccc1NC(=O)COc1ccc(Cl)cc1C(=O)c1cc(Cl)cc(C#N)c1 ; strain: NNRTI-resistant (RT Y188L) ; changes: RT-Y188L ; cells: MAGI ; method: β-galactosidase ; result: 0.021 µM
Cc1cn([C@H]2C[C@H](N=[N+]=[N-])[C@@H](COC(=O)CC[C@@H](C)[C@H]3CC[C@H]4[C@@H]5CC[C@@H]6CCCC[C@]6(C)[C@H]5CC[C@]34C)O2)c(=O)[nH]c1=O ; cells: CEM + CME-SS ; method: cytopathic effect / XTT ; result: 0.042 µM
CCc1cc(NCc2nc3c(Cl)ccc(Cl)c3o2)c(=O)[nH]c1C ; strain: IIIB ; cells: HT4lacZ-1/IIIB + HT4 LacZ-1 ; method: syncytia ; result: 0.02 µM
Nc1ccc(-c2nc3cc(Cl)ccc3c(=O)[nH]2)cc1 ; cells: OM-10.1 ; method: p24 ; result: 4 µM
CN(C)CCN(C)CCCCCCCCOP(=O)(O)OC[C@H]1OC(O)[C@H](O)[C@@H](O)[C@@H]1O ; strain: LAI ; cells: CEM + CEM-4 ; method: cytopathic effect / MTT ; result: 1 µM
Cc1cn([C@H]2C[C@H](N=[N+]=[N-])[C@@H](COC(=O)C3CCC(=O)N3C)O2)c(=O)[nH]c1=O ; cells: CEM + CME-SS ; method: cytopathic effect / XTT ; result: 0.081 µM
O=c1[nH]cnc2c1ncn2C1CC[C@@H](CO)O1 ; changes: M184V ; cells: Primary T lymphocytes ; method: p24 / ELISA ; result: 11.5 µM
Cc1cn([C@H]2C[C@H](N=[N+]=[N-])[C@@H](CO)O2)c(=O)[nH]c1=O ; strain: PNL-4.3LUCR-E ; cells: HEK 293 ; method: luciferase ; result: 0.009 µg/mL
Nc1ccn([C@H]2C=C[C@@H](CO)S2)c(=O)n1 ; strain: IIIB ; cells: HeLa + HELA CD4+ ; result: 23 µM
CN1CCC(c2c(O)cc(O)c3c(=O)cc(-c4ccccc4Cl)oc23)[C@H](O)C1 ; cells: OM-10.1 ; method: p24 ; result: 0.003 µM
COc1ccc(C(=O)N2CCN(c3ccc4c(c3)CCC(=O)N4)CC2)cc1OC ; strain: IIIB ; cells: U-937/HIV-1(IIIB) + U-937 ; method: RT activity ; result: ~10 µg/mL
Nc1ncnc2c1ncn2CCOCP(=O)(O)O ; strain: LAV ; cells: C3 ; method: RT activity ; result: 1.9 µM
Cc1ccc(-c2ccc3c(c2)C=C(C(=O)Nc2ccc(C[N+](C)(C)C4CCOCC4)cc2)CCC3)cc1 ; strain: BaL ; cells: MAGI + MAGI-CCR5 ; method: β-galactosidase ; result: 0.0012 µM
CC(C)CCC[C@@H](C)[C@H]1CC[C@H]2[C@@H]3CC[C@H]4C[C@@H](CCC=C(c5cc(Cl)c(O)c(C(=O)O)c5)c5cc(Cl)c(O)c(C(=O)O)c5)CC[C@]4(C)[C@H]3CC[C@]12C ; strain: RF ; cells: CEMx174 + CEM ; method: p24 / RT activity ; result: 6.1 µM
Cc1cn([C@H]2C[C@H](N=[N+]=[N-])[C@@H](CO)O2)c(=O)n(N)c1=O ; strain: BRU ; cells: CEM-C113 + CEM/C113 ; method: RT activity ; result: 0.01 µM
c1cc(CN2CCCNCCNCCCNCC2)ccc1CN1CCCNCCNCCCNCC1 ; strain: BaL ; cells: MAGI cell ; method: β-galactosidase ; result: >0.2 µM
C/C(=C(/CCO)SSCC1CCCO1)N(C=O)Cc1cnc(C)nc1N ; strain: RF ; cells: U-937/HIV-1(RF) + U-937 ; method: p24 ; result: <50 µM
Cc1cn([C@H]2C[C@H](N=[N+]=[N-])[C@@H](CO)O2)c(=O)[nH]c1=O ; strain: LAV-1 ; cells: U-937 ; method: virus yield ; result: <10 µM
Nc1ccc(-c2nc3ccccc3c(=O)[nH]2)cc1 ; cells: OM-10.1 ; method: p24 ; result: 11.8 µM
CC(C)OC(=O)OCOP(=O)(CO[C@H](C)Cn1cnc2c(N)ncnc21)OCOC(=O)OC(C)C ; strain: NL4-3 ; cells: MAGIC-5A ; method: β-galactosidase / absorbance ; result: 0.013 µM
Nc1nc(=O)n([C@@H]2CC[C@H](CO)S2)cc1F ; strain: IIIB ; cells: HeLa + HELA CD4+ ; result: >50 µM
CCCc1cc(=O)oc2c3c(c4c(c12)OC(C)(C)C=C4)O[C@@H](C)[C@H](C)[C@@H]3O ; strain: NL4-3 ; changes: RT-A98G ; cells: CEM + CEM-SS ; method: XTT ; result: 0.3 µM
N#CC[C@H](C1CCCC1)n1cc(-c2ncnc3[nH]ccc23)cn1 ; strain: LAI ; cells: Primary T lymphocytes ; method: p24 / ELISA ; result: 0.3 µM
Nc1nc(=O)n([C@H]2CC[C@@H](CO)S2)cc1F ; strain: IIIB ; cells: HeLa + HELA CD4+ ; result: >50 µM
O=c1[nH]cnc2c1ncn2[C@H]1CC[C@@H](CO)O1 ; strain: Recombinant ; changes: RT-M184V ; cells: PBMC ; method: p24 ; result: 5–10 µM
C=C(C)OC(=O)N1c2cc(Cl)ccc2NC(=S)C1(C)C ; strain: I420 AZT-resistant (RT M41L D67N K70R T215Y) ; changes: RT-M41L D67N K70R T215Y ; cells: PBL ; method: p24 ; result: 0.003 µM
Cc1cn([C@H]2C[C@H](N=[N+]=[N-])[C@@H](CO)O2)c(=O)[nH]c1=O ; strain: LAV ; cells: C3 ; method: RT activity ; result: 0.02 µM
CCCc1cc(=O)oc2c3c(c4c(c12)OC(C)(C)C=C4)O[C@H](C)[C@@H](C)[C@@H]3O ; strain: NL4-3(RT-4XAZT) ; changes: RT-D67N K70R T215Y K219Q ; cells: CEM + CEM-SS ; method: XTT ; result: 0.2 µM
Cc1ccc(NC(=O)NCCSCc2ccc(CNC(C)C)o2)cc1Cl ; cells: U1 ; method: p24 ; result: >100 µM
Cc1cn([C@H]2C[C@H](N=[N+]=[N-])[C@@H](COC(=O)CC[C@@H](C)[C@H]3CC[C@H]4[C@@H]5C(=O)C[C@@H]6CC(=O)CC[C@]6(C)[C@H]5CC(=O)[C@]34C)O2)c(=O)[nH]c1=O ; cells: CEM + CME-SS ; method: cytopathic effect / XTT ; result: 0.31 µM
O=C([O-])c1cc(COc2ccc(-c3c4nc(c(-c5ccc(OCc6cc(C(=O)[O-])cc(C(=O)[O-])c6)cc5)c5ccc([n-]5)c(-c5ccc(OCc6cc(C(=O)[O-])cc(C(=O)[O-])c6)cc5)c5nc(c(-c6ccc(OCc7cc(C(=O)[O-])cc(C(=O)[O-])c7)cc6)c6ccc3[n-]6)C=C5)C=C4)cc2)cc(C(=O)[O-])c1 ; strain: IIIB ; cells: MAGI cell ; method: β-galactosidase ; result: 0.059 µM
COc1ccc2c(c1)N(C(=O)OC(C)C)[C@@H](CSC)C(=S)N2 ; strain: D34 ; cells: PBL ; method: p24 ; result: 0.002 µM
Cc1cn([C@H]2C[C@H](N=[N+]=[N-])[C@@H](COP(=O)(O)OCCCCCCCCN(C)CCN(C)C)O2)c(=O)[nH]c1=O ; strain: LAI ; cells: CEM + CEM-4 ; method: cytopathic effect / MTT ; result: 0.11 µM
C[C@H](Cn1cnc2c(N)ncnc21)OCP(=O)(O)O ; strain: HE ; cells: MOLT4 + MOLT-4 ; method: syncytia ; result: 8.5 µM
CC(C)(C)OC(=O)N[C@@H](Cc1ccccc1)[C@@H](O)C[C@@H](Cc1ccc(OCCN2CCOCC2)cc1)C(=O)N[C@H]1c2ccccc2C[C@H]1O ; strain: SF162 ; cells: Monocytes/macrophages ; method: antigen ; result: <0.025 µM
COc1ccc(CN[C@@H](C(=O)N[C@H](C(=O)NCc2nc3ccccc3[nH]2)C(C)C)[C@H](O)[C@H](Cc2ccccc2)NC(=O)[C@@H](NC(=O)OCc2ccccc2)C(C)(C)C)cc1 ; strain: K31 ; cells: Primary T4 lymphocytes + T4 ; method: p24 ; setting: clinical isolate ; result: 0.0081 µM
CC[C@H](C)[C@H](NC(=O)[C@H](CCC(=O)O)NC(=O)[C@@H](NC(=O)[C@H](C)N)C(C)C)C(=O)NCC(=O)N[C@@H](C)C(=O)O ; strain: BH10 ; cells: HeLa + HELA CD4+ ; method: syncytia ; result: ~750 µM

The last 4 rows once more:

| compound | strain | changes | cells | method | setting | result |
|---|---|---|---|---|---|---|
| C[C@H](Cn1cnc2c(N)ncnc21)OCP(=O)(O)O | HE | - | MOLT4 + MOLT-4 | syncytia | - | 8.5 µM |
| CC(C)(C)OC(=O)N[C@@H](Cc1ccccc1)[C@@H](O)C[C@@H](Cc1ccc(OCCN2CCOCC2)cc1)C(=O)N[C@H]1c2ccccc2C[C@H]1O | SF162 | - | Monocytes/macrophages | antigen | - | <0.025 µM |
| COc1ccc(CN[C@@H](C(=O)N[C@H](C(=O)NCc2nc3ccccc3[nH]2)C(C)C)[C@H](O)[C@H](Cc2ccccc2)NC(=O)[C@@H](NC(=O)OCc2ccccc2)C(C)(C)C)cc1 | K31 | - | Primary T4 lymphocytes + T4 | p24 | clinical isolate | 0.0081 µM |
| CC[C@H](C)[C@H](NC(=O)[C@H](CCC(=O)O)NC(=O)[C@@H](NC(=O)[C@H](C)N)C(C)C)C(=O)NCC(=O)N[C@@H](C)C(=O)O | BH10 | - | HeLa + HELA CD4+ | syncytia | - | ~750 µM |